Patent US20190374627A1, “TARGET PEPTIDES FOR CANCER THERAPY AND DIAGNOSTICS” (priority 2016, published 2019)

System: HCC tumor tissue, adjacent liver tissue, HepG2 cells
Assay: Identification of MHC class I-bound phosphopeptides by W6/32 immunoprecipitation, IMAC and HPLC-ESI-MS/MS
Set-up: species or system human

Substance: KIAsEIAQL: CASKIN2 phosphopeptide, HLA-A*0201 (KIASEIAQL; phosphoserine; (4)...(4) The amino acid at this position is optionally phosphorylated; listed as Homo sapiens)
- Found on other cancers (other malignancies on which the MHC-I-pP was also identified): Ovarian Ca
- Copies/cell (presentation of HCC-associated HLA-A*0201-restricted MHC-I-pP per cell): 0.3 - 0.8 Copies/cell
